{"source": "PubChem BioAssay AID449728", "about": "(The Scripps Research Institute Molecular Screening Center, 2010)", "note": "The list shows a part of the results, in another mix than the full data. Activity calls are given as the source filed them.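 The calls were made as follows: active = inhibition above the campaign's mean inhibition across all tested compounds plus 3 SD (cut at about 9.9% in these data); inactive = the rest.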", "data": [{"assay": "bacterial viability reduction in E. coli – absorbance, OD600, counter-screen for AddAB inhibitor project, primary screen (AID 449728);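 also: uninfected addAB+ strain grown without phage in ampicillin broth; 0% = DMSO wells and 100% = ciprofloxacin 0.95 µg/ml wells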", "conditions": "E. coli V3065 growth, 18 h, at 11.9 µM, hits give high values", "values": [{"smiles": "O=[N+]([O-])c1ccc(O)c(/C=N/Nc2ccc([N+](=O)[O-])cc2[N+](=O)[O-])c1", "inhibition": "inactive: -1.38%"}, {"smiles": "C[C@H]1OP(=O)(Oc2ccccc2)[C@H](O)[C@H](O)[C@H]1N=[N+]=[N-]", "note": "(stereo not given in full)", "inhibition": "inactive: 0.85%"}, {"smiles": "O=P(Nc1nc2ccccc2s1)(c1ccccc1)c1ccccc1", "inhibition": "inactive: -1.7%"}, {"smiles": "CN(C)C1(CNC(=O)c2ccc(Cl)c(S(N)(=O)=O)c2)CCCCC1", "inhibition": "inactive: -0.18%"}, {"smiles": "O=P(Nc1ccccn1)(c1ccc(Br)cc1)c1ccc(Br)cc1", "inhibition": "inactive: 1.19%"}, {"smiles": "c1nnnn1CCn1cnnn1", "inhibition": "inactive: 2.53%"}, {"smiles": "O=P(Nc1nccs1)(c1ccccc1)c1ccccc1", "inhibition": "inactive: 0.17%"}, {"smiles": "CC(C)C(=O)NC(Sc1ccccc1)C(Cl)(Cl)Cl", "note": "(stereo not given)", "inhibition": "inactive: -1.3%"}, {"smiles": "CC1CCN(C(=O)Oc2c(Cl)cc(Cl)c3cccnc23)CC1", "inhibition": "inactive: -0.08%"}, {"smiles": "CN(C)C(=O)OCCc1n(C)cc[n+]1C", "inhibition": "inactive: 0.7%"}, {"smiles": "CC(C)=N/N=C(\\N)N[N+](=O)[O-]", "inhibition": "inactive: 0.55%"}, {"smiles": "CCN(/C(=N/P(=O)(N1CCOCC1)N1CCOCC1)N1CCOCC1)c1ccc(OC)cc1", "inhibition": "inactive: 1.81%"}, {"smiles": "C[N+]1=C2C=CC=CC=C2SC12C([N+](=O)[O-])=CC([N+](=O)[O-])=C[C-]2[N+](=O)[O-]", "note": "(stereo not given)", "inhibition": "inactive: -2.49%"}, {"smiles": "Nc1ccc([As](=O)(O)c2ccc(N)cc2)cc1", "inhibition": "inactive: 0.59%"}, {"smiles": "O=[N+]([O-])c1cc([N+](=O)[O-])c(CCNc2ccccc2)c([N+](=O)[O-])c1", "inhibition": "inactive: 0.42%"}, {"smiles": "CCc1nc2c(n1)c1c(non1O)c1c2no[n+]1[O-]", "inhibition": "inactive: 2.41%"}, {"smiles": "Cc1ccc(NP(=O)(Oc2ccccc2)Oc2ccccc2)nc1", "inhibition": "inactive: 2.03%"}, {"smiles": "CC(=O)N1C2C3N(C(C)=O)C1C1N(C(C)=O)C(C(N1C(C)=O)N3C(C)=O)N2C(C)=O", "inhibition": "inactive: -1.52%"}, {"smiles": "O=[N+]([O-])c1cccc2n[nH]nc12", "inhibition": "active: 56.5%"}, {"smiles": "COc1ccc(C2=NCC(CBr)S2)cc1", "note": "(stereo not given)", "inhibition": "inactive: 2.12%"}, {"smiles": "O=[N+]([O-])c1cccc(NC2=NCC(CBr)S2)c1", "note": "(stereo not given)", "inhibition": "inactive: -0.49%"}, {"smiles": "O=[N+]([O-])c1ncn(CCn2ncnc2[N+](=O)[O-])n1", "inhibition": "inactive: 0.17%"}, {"smiles": "CC(C)(C)C(=O)NC(Sc1ccncn1)C(Cl)(Cl)Cl", "note": "(stereo not given)", "inhibition": "inactive: 3.78%"}, {"smiles": "O=C(Nc1cc([As](=O)(O)O)ccc1O)c1ccccc1", "inhibition": "inactive: 0.36%"}, {"smiles": "CCN(N=Nc1nonc1N)c1nonc1N", "inhibition": "inactive: 2.6%"}, {"smiles": "O=[N+]([O-])c1cc([N+](=O)[O-])c(CCN2CCOCC2)c([N+](=O)[O-])c1", "inhibition": "inactive: -2.53%"}, {"smiles": "CN(C(=O)Cc1ccc(Cl)c(Cl)c1)[C@H]1CCCC[C@@H]1N1CCCC1", "inhibition": "inactive: -0.52%"}, {"smiles": "Cc1ccc(NP(=O)(Oc2ccccc2F)Oc2ccccc2F)nc1", "inhibition": "inactive: -1%"}, {"smiles": "Cc1cc(SC(NC(=O)c2ccc(F)cc2)C(Cl)(Cl)Cl)ncn1", "note": "(stereo not given)", "inhibition": "inactive: 0.85%"}, {"smiles": "CCOP(=O)(Nc1ccccc1)OCC", "inhibition": "inactive: 0.33%"}, {"smiles": "O=P(Nc1nc2ccc(Cl)cc2s1)(c1ccccc1)c1ccccc1", "inhibition": "inactive: -3.13%"}, {"smiles": "CC(=O)Nc1ccc([As](=O)(O)O)cc1", "inhibition": "inactive: 0.36%"}, {"smiles": "O=C(O)c1ccccc1[As](=O)(O)O", "inhibition": "inactive: 0%"}, {"smiles": "O=C(NC(Sc1ccncn1)C(Cl)(Cl)Cl)c1ccccc1", "note": "(stereo not given)", "inhibition": "inactive: 0.95%"}, {"smiles": "Cc1c2non([O-])c-2c(C)[n+](=O)[n+]1[O-]", "inhibition": "active: 9.88%"}, {"smiles": "Oc1ccccc1CNc1ccccn1", "inhibition": "inactive: -0.26%"}, {"smiles": "Nc1cc(N)c2nonc2c1[N+](=O)[O-]", "inhibition": "inactive: 0.32%"}, {"smiles": "CC(C)CC(=O)NC(Sc1ccc(Cl)cc1)C(Cl)(Cl)Cl", "note": "(stereo not given)", "inhibition": "inactive: 3.21%"}, {"smiles": "CN1CCCC(OC(=O)C(c2ccccc2)c2ccccc2)C1", "note": "(stereo not given)", "inhibition": "inactive: -2.78%"}, {"smiles": "Clc1ccc(Cl)c(NC2=NCC(CBr)S2)c1", "note": "(stereo not given)", "inhibition": "inactive: -1.1%"}, {"smiles": "Cc1ccc(OP(=O)(Nc2nccs2)Oc2ccc(C)cc2)cc1", "inhibition": "inactive: -4.23%"}, {"smiles": "COc1ccccc1OP(=O)(Nc1ccc(C)cn1)Oc1ccccc1OC", "inhibition": "inactive: 1.85%"}, {"smiles": "Cc1ccc(N/C(=N/P(=O)(N2CCOCC2)N2CCOCC2)N2CCOCC2)cc1", "inhibition": "inactive: -0.08%"}, {"smiles": "CN(C(=O)Cc1ccc(Cl)c(Cl)c1)[C@H]1CCCC[C@H]1N1CCCC1", "inhibition": "inactive: -1.72%"}, {"smiles": "NC(=O)c1cc([N+](=O)[O-])cc([N+](=O)[O-])c1N", "inhibition": "inactive: 1.69%"}]}]}
